Experimental data published in patent US12692471B2, “High aspect ratio devices and methods for vitrification of biological samples by rapid cooling” (The General Hospital Corporation, priority 2020, dated 2026).

Assay: Validation of vitrification of Water-DMSO mixtures in cassettes by imaging
Assay type: physicochemical

## C[S+](C)[O-] [DMSO, dimethyl sulfoxide]
Water-DMSO mixtures plunged in liquid nitrogen in cassettes
  DMSO concentration at which vitrification is indicated (ice crystallization during gradual warming in air): > 25 % v/v
Vitrification cassettes
  minimum DMSO necessary to form extracellular glass: ≥ 30%
